Data source: PubChem BioAssay AID1259414 (Drosophila RNAi Screening Center, 2018)

- Test: 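Fly genes that alter Wolbachia amount inside host cells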 (primary screen)
- Cells: Drosophila JW18 cells infected with Wolbachia
- Knock-down reagent: long dsRNA against Drosophila genes, 0.25 µg dsRNA per well of a 384-well plate
- Time to read-out: 5 days
- Treatment: cells persistently infected with Wolbachia before knock-down; no added drug
- Read-out: 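Imaged fluorescence in situ signal for Wolbachia 23S rRNA per DAPI-counted host cell, given as a robust z-score within each plate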
- Reading the numbers: Wolbachia per cell robust z: higher = more Wolbachia per host cell than the plate typical
- Hit rule: 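Hit when robust z is 1.5 or more, or -1.5 or less, in at least two of three replicates; excludes dsRNAs with several or no targets, genes not expressed in JW18 and well A1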
In all, the deposit lists about 24,000 reagents; shown is an unselected part of those with a known target gene and a result. Of all reagents, about 1,210 (5%) are marked active. 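Inactive calls also include excluded dsRNAs with several or no targets, genes unexpressed in JW18, and well A1, regardless of score.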 A number with no mark means an inactive call.

lncRNA:CR30121 (long non-coding RNA:CR30121) [SID104201212]
- Wolbachia per cell robust z, rep 1: -0.956
- Wolbachia per cell robust z, rep 2: -1.73
- Wolbachia per cell robust z, rep 3: -1.23

lncRNA:CR30121 (long non-coding RNA:CR30121) [SID104205798]
- Wolbachia per cell robust z, rep 1: 0.968
- Wolbachia per cell robust z, rep 2: 0.0334
- Wolbachia per cell robust z, rep 3: 0.976

CCKLR-17D3 (Cholecystokinin-like receptor at 17D3) [SID104199807]
- Wolbachia per cell robust z, rep 1: 1.09
- Wolbachia per cell robust z, rep 2: 0.791
- Wolbachia per cell robust z, rep 3: 0.388

CCKLR-17D3 (Cholecystokinin-like receptor at 17D3) [SID104199809]
- Wolbachia per cell robust z, rep 1: 0.0104
- Wolbachia per cell robust z, rep 2: -0.53
- Wolbachia per cell robust z, rep 3: -0.296

CCKLR-17D3 (Cholecystokinin-like receptor at 17D3) [SID104202859]
- Wolbachia per cell robust z, rep 1: -0.342
- Wolbachia per cell robust z, rep 2: 0.378
- Wolbachia per cell robust z, rep 3: 0.461

CG30159 [SID104184773]
- Wolbachia per cell robust z, rep 1: -2.63
- Wolbachia per cell robust z, rep 2: -0.555
- Wolbachia per cell robust z, rep 3: -1.37

CG30159 [SID104205227]
- Wolbachia per cell robust z, rep 1: 0.706
- Wolbachia per cell robust z, rep 2: -0.332
- Wolbachia per cell robust z, rep 3: -0.424

CG15547 [SID104194877]
- Wolbachia per cell robust z, rep 1: 0.403
- Wolbachia per cell robust z, rep 2: -3.98
- Wolbachia per cell robust z, rep 3: 0.423

CG15547 [SID104208121]
- Wolbachia per cell robust z, rep 1: 1.13
- Wolbachia per cell robust z, rep 2: 0.403
- Wolbachia per cell robust z, rep 3: 1.18

CG15547 [SID104219146]
- Wolbachia per cell robust z, rep 1: -0.182
- Wolbachia per cell robust z, rep 2: -1.11
- Wolbachia per cell robust z, rep 3: 0.0724

CG32221 [SID104189430]
- Wolbachia per cell robust z, rep 1: -1.07
- Wolbachia per cell robust z, rep 2: 0.24
- Wolbachia per cell robust z, rep 3: -0.074

nod (no distributive disjunction) [SID104198692]
- Wolbachia per cell robust z, rep 1: -0.177
- Wolbachia per cell robust z, rep 2: 1.39
- Wolbachia per cell robust z, rep 3: -0.621

nod (no distributive disjunction) [SID104200148]
- Wolbachia per cell robust z, rep 1: 0.172
- Wolbachia per cell robust z, rep 2: 0.74
- Wolbachia per cell robust z, rep 3: -0.0208

CG32669 [SID104198656]
- Wolbachia per cell robust z, rep 1: 0.241
- Wolbachia per cell robust z, rep 2: 0.243
- Wolbachia per cell robust z, rep 3: -0.0187

lush [SID104191156]
- Wolbachia per cell robust z, rep 1: -1.85
- Wolbachia per cell robust z, rep 2: -0.503
- Wolbachia per cell robust z, rep 3: -0.702

CG7231 [SID104182826]
- Wolbachia per cell robust z, rep 1: -1.76
- Wolbachia per cell robust z, rep 2: 0.737
- Wolbachia per cell robust z, rep 3: 1.14

Sym (Symplekin) [SID104192093]
- Wolbachia per cell robust z, rep 1: -0.427
- Wolbachia per cell robust z, rep 2: 0.00322
- Wolbachia per cell robust z, rep 3: 0.53

Sym (Symplekin) [SID104207799]
- Wolbachia per cell robust z, rep 1: -0.0302
- Wolbachia per cell robust z, rep 2: -0.19
- Wolbachia per cell robust z, rep 3: -4.15

Snap25 (Synaptosomal-associated protein 25kDa) [SID104201020]
- Wolbachia per cell robust z, rep 1: 0.145
- Wolbachia per cell robust z, rep 2: 0.00517
- Wolbachia per cell robust z, rep 3: -0.872

Snap25 (Synaptosomal-associated protein 25kDa) [SID104201028]
- Wolbachia per cell robust z, rep 1: 0.338
- Wolbachia per cell robust z, rep 2: -0.305
- Wolbachia per cell robust z, rep 3: 0.963

Vajk1 [SID104181674]
- Wolbachia per cell robust z, rep 1: -0.0332
- Wolbachia per cell robust z, rep 2: 0.032
- Wolbachia per cell robust z, rep 3: -0.913

Vajk1 [SID104204649]
- Wolbachia per cell robust z, rep 1: -0.513
- Wolbachia per cell robust z, rep 2: 0.811
- Wolbachia per cell robust z, rep 3: -0.034

CG32079 [SID104202044]
- Wolbachia per cell robust z, rep 1: -0.481
- Wolbachia per cell robust z, rep 2: 0.7
- Wolbachia per cell robust z, rep 3: 0.375

Prosbeta4R1 (Proteasome beta4 subunit-related 1) [SID104216508]
- Wolbachia per cell robust z, rep 1: -0.297
- Wolbachia per cell robust z, rep 2: -0.737
- Wolbachia per cell robust z, rep 3: 0.00684

Reformatted: 3 of the entries above.
target gene,PubChem SID,"Wolbachia per cell robust z, rep 1","Wolbachia per cell robust z, rep 2","Wolbachia per cell robust z, rep 3"
lncRNA:CR30121 (long non-coding RNA:CR30121),SID104205798,0.968,0.0334,0.976
CCKLR-17D3 (Cholecystokinin-like receptor at 17D3),SID104199807,1.09,0.791,0.388
CCKLR-17D3 (Cholecystokinin-like receptor at 17D3),SID104199809,0.0104,-0.53,-0.296
